## Results of single-concentration screens

Mtb glucose medium: 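Whole-cell growth test on Mycobacterium tuberculosis, read after 3 days in glucose-containing 7H9 medium; the read-out is not stated. Concentration: 500 µM. The record gives no direction; compounds that gave an IC50 in retests scored well above the rest, so higher reads as more growth inhibition. About 18,000 compounds were tested under these conditions; 7.9% (about 1,400) showed 50% or more at least once.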
Mtb cholesterol medium: 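Whole-cell growth test on Mycobacterium tuberculosis, read after 4 days in a medium based on cholesterol and the lipid DPPC; the read-out is not stated. Compounds at 500 µM. Direction is inferred from retests: higher values go with more growth inhibition. Size under these conditions: about 18,000 compounds, about 900 of them at 50% or above in at least one test.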

The filed quantity is “Percent Effect” (%).
How 0% and 100% were set is not recorded. Most values in the screen are low, and negative values occur.
Many other results are left out here, so strong results are more common than in the screen.
A dash means the value is not listed here; it may have been measured.

Compound: COCCCn1ccc(NC(=O)NC(C)(C)C)n1
Mtb glucose medium: 13.94

Compound: CCCn1cc(S(=O)(=O)NC(CC)[C@H]2C[C@@H](O)C2)cn1 (some centres undefined)
Mtb cholesterol medium: 7.942

Compound: CC(C)Oc1ccc(S(=O)(=O)N2CCC(N)C2)cc1 (centres undefined)
Mtb glucose medium: 81.22

Compound: COCCOc1ccc(NC(=O)OCC(F)(F)F)cn1
Mtb glucose medium: 60.73
Mtb cholesterol medium: 70.46

Compound: C1CNC(CN2CCOCC2)C1 (centres undefined)
Mtb glucose medium: -9.413

Compound: CS(=O)(=O)c1cccc(C(=O)NCC2(O)CCNC2)c1 (centres undefined)
Mtb glucose medium: 13.45

Compound: CCC(CO)Nc1nccc(C(F)(F)F)n1 (centres undefined)
Mtb glucose medium: 52.72
Mtb cholesterol medium: 53.48

Compound: Cn1cc(Br)cc1C(=O)NCCC(O)C(F)(F)F (centres undefined)
Mtb cholesterol medium: -6.141

Compound: Cc1cc(C)n(C(C)C(=O)NCCS(=O)(=O)N(C)C)n1 (centres undefined)
Mtb glucose medium: 16.43

Compound: NS(=O)(=O)c1cccc(S(=O)(=O)c2ccc(Cl)cc2)c1
Mtb glucose medium: 73.05
Mtb cholesterol medium: 71.81

Compound: COc1cc(NCCN(C)S(C)(=O)=O)ncn1
Mtb glucose medium: 22

Compound: Cc1cccc(C)c1NC(=O)Cn1cnc(C#N)n1
Mtb glucose medium: -15.06
Mtb cholesterol medium: -25.55

Compound: CC1(C)Cc2cc(CN)ccc2O1
Mtb glucose medium: -0.2265

Compound: Cc1nc2ccccc2c(C)c1C(N)=O
Mtb cholesterol medium: 5.465

Compound: CCNS(=O)(=O)C1CCN(Cc2c(F)cccc2F)C1 (centres undefined)
Mtb cholesterol medium: 14.88

Compound: O=C(Nc1ccc(Br)cn1)C1CCCNC1 (centres undefined)
Mtb cholesterol medium: 1.307

Compound: CN(C)C(=O)CNC(=O)c1sccc1Br
Mtb cholesterol medium: 38

Compound: CCC1c2ccsc2CCN1C(=O)c1ccc(CN)o1 (centres undefined)
Mtb glucose medium: 73.74
Mtb cholesterol medium: 53.83

Compound: NC1CCC(=O)c2ccccc21 (centres undefined)
Mtb cholesterol medium: 16.49

Compound: CC(CO)CNC(=O)CCNC(=O)NC1CCCCC1 (centres undefined)
Mtb cholesterol medium: 14.8

Compound: Nc1ncnn1-c1ccc(C(F)(F)F)cn1
Mtb glucose medium: 14.45
Mtb cholesterol medium: 17.5

Compound: N#Cc1ccc(C(=O)NCC2CCCO2)cc1 (centres undefined)
Mtb glucose medium: 39.03
Mtb cholesterol medium: 26.34

Compound: CNC(=O)c1cccnc1NCC1CC1
Mtb cholesterol medium: 12.13

Compound: CC(C)(C)C(=O)N1CCCN2CCCC2C1 (centres undefined)
Mtb glucose medium: -3.017

Compound: CC1CCN(CCNC(=O)Nc2ncnn2C)CC1
Mtb glucose medium: -22.71

Compound: COCCc1noc(C2CNC2)n1
Mtb glucose medium: 99.82
Mtb cholesterol medium: 92.28

Compound: Cc1cc(C(=O)NCCCOCC2CCOC2)c(C)o1 (centres undefined)
Mtb glucose medium: -0.6215

Compound: O=C(NCC1COCCO1)c1cnc2ccccc2c1 (centres undefined)
Mtb glucose medium: 50.44
Mtb cholesterol medium: 31.3

Compound: O=C1CC(c2ccccc2)C(=O)N1 (centres undefined)
Mtb cholesterol medium: -11.83

Compound: CCn1cc(CN2CCCN(C(=O)CSC)CC2)cn1
Mtb glucose medium: 12.6

Compound: O=C1NCCCC1O (centres undefined)
Mtb glucose medium: -7.184

Compound: Cc1ccc[nH]c1=O
Mtb cholesterol medium: 0.2842

Compound: Cc1c(C(=O)NC[C@H]2CCCN2)n(C)c2ccccc12
Mtb glucose medium: 50.21
Mtb cholesterol medium: 51.09

Compound: COc1ccc2c(c1)CCCN2C(=O)CSC
Mtb glucose medium: 45.28
Mtb cholesterol medium: 31.38

Compound: COCCNC(=O)COc1ccc2c(c1)OCO2
Mtb glucose medium: 53.75
Mtb cholesterol medium: 38.13

Compound: N#Cc1cc(Br)cc(S(=O)(=O)NCCCN)c1
Mtb glucose medium: 50.83

Compound: COCCn1cnc2c1c(=O)[nH]c(=O)n2CC(C)C
Mtb cholesterol medium: -23.85

Compound: CCN(CC)S(=O)(=O)CC(=O)Nc1ccc(F)c(C)c1
Mtb glucose medium: 58.79

Compound: CN(C)[C@@H]1C[C@@H](CO)N(C(=O)c2ccc(Cl)s2)C1
Mtb glucose medium: 8.228

Compound: CN(C)c1cc(CNC(=O)C2CCC(=O)N2)ccn1 (centres undefined)
Mtb glucose medium: 19.58

Compound: CC(O)CN1CCN(C)CC1 (centres undefined)
Mtb glucose medium: 1.698
Mtb cholesterol medium: -1.404

Once more, the final 5:

Compound	Mtb glucose medium	Mtb cholesterol medium
COCCn1cnc2c1c(=O)[nH]c(=O)n2CC(C)C	-	-23.85
CCN(CC)S(=O)(=O)CC(=O)Nc1ccc(F)c(C)c1	58.79	-
CN(C)[C@@H]1C[C@@H](CO)N(C(=O)c2ccc(Cl)s2)C1	8.228	-
CN(C)c1cc(CNC(=O)C2CCC(=O)N2)ccn1 (centres undefined)	19.58	-
CC(O)CN1CCN(C)CC1 (centres undefined)	1.698	-1.404

Data taken from ChEMBL document CHEMBL3988442, “University of Dundee, Small-Polar-MMV Screening Library” (2021).